From publication PMC10662765 come the findings set out here.

The exact form of at least one protein or probe is not confirmed. At least one verdict rests on a figure or table, not on a statement of the authors.

The target of the series is NP WT (Influenza A virus A/NT/60/1968 (H3N2)) (UniProt Q08041). In words: EMSA. To be noted: recombinant protein; label: none (SYBR Safe stain).

As to “AGUAGAAACAAGGCCGUAGAAUGAUGUAUAUGAGACAGA [39-nt RNA]”, the binding result is “binds”.
